The numbers were not newly measured in article PMC9180620, which cites them from elsewhere.

As a reminder, the Kd is a measure of binding affinity in units of concentration.

In this data set the target is TLR4 (Homo sapiens) (UniProt O00206). The data set is described as follows: SPR. Background: SPR reads the build-up and loss of mass on a sensor chip optically.

“SARS-CoV-2 spike trimer (from UniProt P0DTC2)”: the Kd is 300 nM.
